A mixed list of measured activities; the numbers were collected in NIAID ChemDB.

Common to all: tests in culture; organism: HIV-1; method: MTT; read-out: EC50

Lines come from different laboratories, so protocols vary. Blank or dashed fields: not listed here. ECn is the concentration giving n% inhibition of infection, replication or growth.

structure | cell line | strain | mutations | value
Cc1cc(C#N)cc(C)c1Oc1nc(Nc2ccc(C#N)cc2)nc(N)c1Br | MT-4 | IIIB | L100I | 0.0054 µM
O=C(Cc1ccc(CC(=O)NCCCN2CCCCC2)cc1)NCCCN1CCCCC1 | MT-4 | - | - | >282 µM
Cc1cc(C#N)cc(C)c1Oc1nc(Nc2ccc(C#N)cc2)nc(N)c1Br | MT-4 | IIIB | E138K | 0.007 µM
N#Cc1ccccc1Cn1cc(CSc2nc(Cc3cccc4ccccc34)c(I)c(=O)[nH]2)nn1 | - | IIIB | - | >75.93 µM
N=C1Sc2cc(-c3ccc4c(c3)OCO4)ccc2C2=NCCCN12 | MT-4 | IIIB | - | 0.89 µM
Cc1cc(C)cc(C(=O)c2cccnc2Nc2ccc(/C(N)=N\O)cc2)c1 | MT-4 | IIIB | - | >30.27 µM
CC(=O)Oc1ccc2ccccc2c1Cc1c(C)[nH]c2ccccc12 | MT-4 | - | - | 27 µM
C=C(C#N)c1cc(C)c(Oc2ccnc(Nc3ccc(CN4CCN(S(C)(=O)=O)CC4)cc3)n2)c(C)c1 | MT-4 | IIIB | F227L + V106A | 0.11 µM
COc1ccc2ccc(OC(C)=O)c(Cc3c[nH]c4ccc(Br)cc34)c2c1 | MT-4 | - | - | 8 µM
O=C(Cc1ccc(CC(=O)NCCN2CCCCC2)cc1)NCCN1CCCCC1 | MT-4 | - | - | 4.82 µM
C#Cc1ccc(Nc2nccc(Oc3c(C)cc(-c4cn(CC(=O)Nc5ccc(F)cc5)nn4)cc3C)n2)cc1 | MT-4 | IIIB | K103N | >1.41 µM
Cc1cc(C#N)cc(C)c1Oc1nc(N/N=C/c2ccc(C#N)cc2F)nc2ccsc12 | MT-4 | IIIB | - | 0.0413 µM
O=c1[nH]cnc2c1ncn2C1CC[C@@H](CO)O1 | MT-4 | IIIB | - | 5.37 µM
C#Cc1ccc(Nc2nccc(Oc3c(C)cc(-c4cn(Cc5cccc(C(=O)OC)c5)nn4)cc3C)n2)cc1 | MT-4 | IIIB | E138K | 0.96 µM
Oc1ccc2ccccc2c1CN1CCN(Cc2c(O)ccc3ccccc23)CC1 | MT-4 | - | - | >100 µM
COC(=O)c1cccc(-c2ccc3c(c2)SC(=N)N2CCCN=C32)c1 | MT-4 | IIIB | - | 1.5 µM
COc1ccc(C(=O)N2CCC(NC(=O)c3cc(O)c(O)c(O)c3)CC2)cc1 | MT-4 | IIIB | - | >85.7 µM
Cc1cc(C#N)cc(C)c1Oc1nc(N/N=C/C2CCN(Cc3ccc(C#N)cc3)CC2)nc2ccsc12 | MT-4 | RES056 | K103N/Y181C | >23.6 µM
Cc1ccnc2c1NC(=O)c1cccnc1N2C1CC1 | MT-4 | RES056 | - | >15.9 µM
O=C(NC1CCN(C(=O)c2ccc(F)cc2)CC1)c1cc(O)c(O)c(O)c1 | MT-4 | IIIB | - | >30.8 µM
Cc1cn([C@H]2C[C@H](N=[N+]=[N-])[C@@H](CO)O2)c(=O)[nH]c1=O | MT-4 | 92UG021 (subtype D) | - | 0.001 µg/mL
N#Cc1ccccc1Cn1cc(CSc2nc(Cc3cccc4ccccc34)cc(=O)[nH]2)nn1 | - | IIIB | - | >105 µM
COc1ccc2ccc(OC(C)=O)c(Cc3c(-c4ccccc4)[nH]c4ccccc34)c2c1 | MT-4 | - | - | >15 µM
Cc1cc(C)cc(C(=O)c2cccnc2Nc2ccc(S(N)(=O)=O)cc2)c1 | MT-4 | IIIB | - | >176 µM
CCC/C=C/c1ccc2c(c1)SC(=N)N1CCCN=C21 | MT-4 | IIIB | - | 0.47 µM
COc1ccc(S(=O)(=O)N2CCC(NC(=O)c3cc(O)c(O)c(O)c3)CC2)cc1 | MT-4 | IIIB | - | >130.5 µM
Cc1cc(C)cc(C(=O)c2cccnc2Nc2ccc(S(C)(=O)=O)cc2)c1 | MT-4 | IIIB | - | >98.17 µM
CC(=O)Oc1ccc2cc(Br)ccc2c1Cc1c(C)[nH]c2ccccc12 | MT-4 | - | - | 12 µM
Cc1cc(C#N)cc(C)c1Oc1nc(N/N=C/c2ccc(C#N)c(F)c2)nc2ccsc12 | MT-4 | IIIB | - | 0.0257 µM
Cc1cc(C#N)cc(C)c1Oc1nc(Nc2ccc(C#N)cc2)nc(N)c1Br | MT-4 | - | E138K | 0.006 µM
COc1ccc2ccc(O)c(CN3CCN(Cc4c(O)ccc5ccc(OC)cc45)CC3)c2c1 | MT-4 | - | - | >100 µM
Cc1cc(C#N)cc(C)c1Oc1nc(N/N=C/C2CCN(Cc3ccc(F)cc3)CC2)nc2ccsc12 | MT-4 | IIIB | - | >5.48 µM
C1CNCCNCCCNCCNC1 | MT-4 | IIIB | - | 44 µg/mL
C#Cc1ccc(Nc2nccc(Oc3c(C)cc(-c4cn(Cc5ccc(C#N)cc5)nn4)cc3C)n2)cc1 | MT-4 | RES056 | - | >7.18 µM
Cc1cc(-c2ccc(C#N)cc2)cc(C)c1Oc1ccnc(S(=O)(=O)CC(=O)Nc2ccc(C#N)cc2)n1 | MT-4 | IIIB | L100I | 0.008 µM
CN(C)S(=O)(=O)N1CCC(NC(=O)c2cc(O)c(O)c(O)c2)CC1 | MT-4 | IIIB | - | >34.8 µM
COc1cccc(-c2ccc3c(c2)SC(=N)N2CCCN=C32)c1 | MT-4 | IIIB | - | 0.35 µM
c1cc(CNCCN2CCOCC2)ccc1CNCCN1CCOCC1 | MT-4 | - | - | >236.4 µM
Cc1cc(/C=C/C#N)cc(C)c1Oc1ccnc(S(=O)(=O)CC(=O)Nc2ccc(F)cc2)n1 | MT-4 | - | Y181C | 0.045 µM
Cc1cc(C)cc(C(=O)c2cccnc2Oc2ccc(C=O)cc2)c1 | MT-4 | IIIB | - | >33.65 µM
N=C1Sc2cc(-c3ccccc3)ccc2C2=NCCCN12 | MT-4 | IIIB | - | 2.2 µM
O=C(Cc1ccc(CNCCCN2CCOCC2)cc1)NCCCN1CCOCC1 | MT-4 | - | - | >59.73 µM
O=c1cc(Cc2c(Cl)cccc2Cl)nc(SCc2cn(Cc3ccccc3)nn2)[nH]1 | - | RES056 | - | >273 µM
CC(C)(C)OC(=O)N1CCC(NC(=O)c2cc(O)c(O)c(O)c2)CC1 | MT-4 | IIIB | - | >42.9 µM
C#Cc1ccc(Nc2nccc(Oc3c(C)cc(-c4cn(Cc5ccccc5[N+](=O)[O-])nn4)cc3C)n2)cc1 | MT-4 | IIIB | L100I | >7.22 µM
COc1ccc(Cn2cc(CSc3nc(Cc4c(Cl)cccc4Cl)c(I)c(=O)[nH]3)nn2)cc1 | - | IIIB | - | >75.91 µM
Cc1cc(C)cc(C(=O)c2cccnc2Oc2ccc(C#N)cc2)c1 | MT-4 | RES056 | - | >31.61 µM
C=Cc1ccc2c(c1)C1=NCCCN1C(=N)S2 | MT-4 | IIIB | - | 2.3 µM
C[C@@H]1[C@H](O)[C@@H](CO)O[C@H]1n1ccc(N)nc1=O | MT-4 | - | - | >100 µM
O=c1[nH]c(SCc2cn(Cc3ccc(F)cc3)nn2)nc(Cc2cccc3ccccc23)c1I | - | IIIB | - | >81.81 µM
Cc1cc(/C=C/C#N)cc(C)c1Oc1nc(N/N=C/c2ccc(C#N)cc2)nc2ccsc12 | MT-4 | IIIB | - | 0.0944 µM
Cc1ccnc2c1NC(=O)c1cccnc1N2C1CC1 | - | RES056 | - | ≥7.59 µM
Cc1ccnc2c1NC(=O)c1cccnc1N2C1CC1 | MT-4 | RES056 | K103N/Y181C | >15 µM
Cc1cc(C)cc(C(=O)c2cccnc2Nc2ccc(C(F)(F)F)cc2)c1 | MT-4 | IIIB | - | >106 µM
CS(=O)(=O)N1CCC(NC(=O)c2cc(O)c(O)c(O)c2)CC1 | MT-4 | IIIB | - | >42.4 µM
c1cc(CN2CCCNCCNCCCNCC2)ccc1CN1CCCNCCNCCCNCC1 | MT-4 | AMD3100RES (subtype B) | - | 0.08 µg/mL
Cc1cn([C@H]2C[C@H](N=[N+]=[N-])[C@@H](CO)O2)c(=O)[nH]c1=O | MT-4 | - | L100I mutant | 0.005 µM
CCC(=O)Oc1ccc2c(C)cc(=O)oc2c1Cc1c(-c2ccccc2)[nH]c2ccccc12 | MT-4 | - | - | >38 µM
CN1CCN(CCCNC(=O)Cc2ccc(CC(=O)NCCCN3CCN(C)CC3)cc2)CC1 | MT-4 | - | - | >264 µM
CNS(=O)(=O)c1ccc(CN2CCC(/C=N/Nc3nc(Oc4c(C)cc(C#N)cc4C)c4sccc4n3)CC2)cc1 | MT-4 | IIIB | - | >3.82 µM
C1CNCCNCCCN(CCN2CCCNCCNCCCNCC2)CCNC1 | MT-4 | IIIB | - | 8.5 µg/mL
CC(=O)N1CCC(NC(=O)c2cc(O)c(O)c(O)c2)CC1 | MT-4 | IIIB | - | >42.6 µM
CCCCc1ccc2c(c1)SC(=N)N1CCCN=C21 | MT-4 | IIIB | - | 5.9 µM

Repeating the final 8 entries:

structure,cell line,strain,mutations,value
c1cc(CN2CCCNCCNCCCNCC2)ccc1CN1CCCNCCNCCCNCC1,MT-4,AMD3100RES (subtype B),-,0.08 µg/mL
Cc1cn([C@H]2C[C@H](N=[N+]=[N-])[C@@H](CO)O2)c(=O)[nH]c1=O,MT-4,-,L100I mutant,0.005 µM
CCC(=O)Oc1ccc2c(C)cc(=O)oc2c1Cc1c(-c2ccccc2)[nH]c2ccccc12,MT-4,-,-,>38 µM
CN1CCN(CCCNC(=O)Cc2ccc(CC(=O)NCCCN3CCN(C)CC3)cc2)CC1,MT-4,-,-,>264 µM
CNS(=O)(=O)c1ccc(CN2CCC(/C=N/Nc3nc(Oc4c(C)cc(C#N)cc4C)c4sccc4n3)CC2)cc1,MT-4,IIIB,-,>3.82 µM
C1CNCCNCCCN(CCN2CCCNCCNCCCNCC2)CCNC1,MT-4,IIIB,-,8.5 µg/mL
CC(=O)N1CCC(NC(=O)c2cc(O)c(O)c(O)c2)CC1,MT-4,IIIB,-,>42.6 µM
CCCCc1ccc2c(c1)SC(=N)N1CCCN=C21,MT-4,IIIB,-,5.9 µM